Literature values, collected in patent publication US20050026902A1, “Methods and compositions for the treatment or prevention of human immunodeficiency virus and related conditions using cyclooxygenase-2 selective inhibitors and antiviral agents” (priority 2003, published 2005).

Conditions: human, in vivo, po

## Loprnavir & Ritonavir [Lopinavir + Ritonavir]
  Food Effect: Take with large meal
